Test results: ChEMBL document CHEMBL1138690, “Carbonic anhydrase inhibitors. Inhibition of the newly isolated murine isozyme XIII with anions” (Bioorg Med Chem Lett, 2004)

Chains of the proteins cited; added tags and fusions are not shown. Residues count along the entry.
UniProt Q9Y2D0, 34-317 limits assumed: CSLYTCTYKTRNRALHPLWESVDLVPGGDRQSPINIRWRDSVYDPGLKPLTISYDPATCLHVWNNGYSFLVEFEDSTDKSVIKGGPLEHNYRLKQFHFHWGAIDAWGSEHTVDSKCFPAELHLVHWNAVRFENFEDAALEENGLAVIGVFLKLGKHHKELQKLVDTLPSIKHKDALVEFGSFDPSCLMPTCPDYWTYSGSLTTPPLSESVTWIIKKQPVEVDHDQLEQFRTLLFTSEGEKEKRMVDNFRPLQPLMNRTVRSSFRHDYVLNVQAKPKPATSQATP
UniProt P35218, 39-305 limits assumed: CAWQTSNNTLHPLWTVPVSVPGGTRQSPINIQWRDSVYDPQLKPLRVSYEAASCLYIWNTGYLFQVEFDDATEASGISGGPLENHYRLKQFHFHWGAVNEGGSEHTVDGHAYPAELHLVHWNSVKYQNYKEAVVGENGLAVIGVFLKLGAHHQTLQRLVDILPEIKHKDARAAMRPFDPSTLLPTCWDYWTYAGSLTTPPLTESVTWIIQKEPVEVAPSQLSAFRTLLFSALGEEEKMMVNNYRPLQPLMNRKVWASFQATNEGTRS

Biological target: Carbonic anhydrase V (Homo sapiens, UniProt Q9Y2D0+P35218)

Structure (SMILES): O[As](O)Oc1ccccc1
- Ki: 7.43 nM
